Assay results from paper PMC8450086.

The chains behind the UniProt entries cited, without tags or fusion partners. Where a name states a change or a piece, a line headed by the entry shows the natural chain unless it says otherwise.
UniProt Q2HR80: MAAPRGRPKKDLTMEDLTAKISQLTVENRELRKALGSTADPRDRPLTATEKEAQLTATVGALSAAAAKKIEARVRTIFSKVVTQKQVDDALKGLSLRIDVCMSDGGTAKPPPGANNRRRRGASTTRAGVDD

Target: KicGAS (Kaposi sarcoma-associated herpesvirus (KSHV)) (UniProt Q2HR80)
Test: fluorescence polarization
Conditions: FP: 400 pg/ul FAM-DNA, buffer and temperature not stated, Hill fits, recombinant protein, residues 1-131, protein details: Avi-His6-SUMO removed (tag-free); for Kd: label: 5' FAM sense strand, letters put together from the description

ACTGATCTGTAC [ssISD12]: no binding (label: 5' FAM, single-stranded DNA).

“TACAGATCTACTAGTGATCTATGACTGATCTGTAC (double strand) [ISD35]” showed a Kd (Hill n 1.90) of 270 nM.

In the case of “CCATCAAAGAGAGAAAGAGC (double strand) [45% GC]”, the Kd (Hill n 2.25) is reported as 1080 nM.

A negative result means that nothing was seen under these conditions. At least one verdict rests on a figure or table, not on a statement of the authors. Construct, isoform or probe ends are uncertain for at least one entry.
